Anti-infective test results gathered from many reports (values: NIAID ChemDB through PubChem).

All rows: tests in culture; species: Hepatitis C virus; read-out: inhibition

Lines come from different laboratories, so protocols vary. Blank or dashed fields: not listed here. Percent inhibition refers to the dose given; in toxicity tests it is the harm to the cells.

structure	dose	strain or isolate	cell line	changes	method	result
COc1cc(Cn2cc(CNC(=O)[C@]34CCC(C)(C)CC3C3=CCC5[C@@]6(C)CC[C@H](O)C(C)(C)C6CC[C@@]5(C)[C@]3(C)C[C@H]4O)nn2)c(OC)cc1Cn1cc(CNC(=O)[C@]23CCC(C)(C)CC2C2=CCC4[C@@]5(C)CC[C@H](O)C(C)(C)C5CC[C@@]4(C)[C@]2(C)C[C@H]3O)nn1	1 µM		Huh7		luciferase / entry	68.5%
Cc1c(C(=O)Nc2ccccc2)nn(-c2ccccc2)c1-n1cccc1	7 µM	Jc1	Huh5-2 replicon cells		PCR	82%
O=C1NC(=Nc2nnc(-c3cccnc3)s2)SC1=Cc1cccc(F)c1	50 µM	GT1b	Huh7		luciferase	69%
CCCC[C@H](NC(=O)[C@@H]1[C@@H]2[C@H](CN1C(=O)[C@@H](NC(=O)NC1(CS(=O)(=O)C(C)(C)C)CCCCC1)C(C)(C)C)C2(C)C)C(=O)C(=O)NC1CC1	0.04 µM	1b	Huh7		MTS	90%
CC1(C)CC[C@@]2(C(=O)NCc3cn(CCCCCn4cc(CNC(=O)[C@]56CCC(C)(C)CC5C5=CCC7[C@@]8(C)CC[C@H](O)C(C)(C)C8CC[C@@]7(C)[C@]5(C)C[C@H]6O)nn4)nn3)C(C1)C1=CCC3[C@@]4(C)CC[C@H](O)C(C)(C)C4CC[C@@]3(C)[C@]1(C)C[C@H]2O	5 µM		Huh7		luciferase / entry	71.9%
O=C(Nc1ccccc1)c1cc(-n2cccc2)n(-c2ccccc2)n1	10 µM	Jc1	Huh5-2 replicon cells		PCR	70%
O=C(Nc1cccc(-c2ccco2)c1)C1CCN(C(=O)CCc2ccco2)CC1	15 µM	JFH-1	Huh7		PCR	<40%
O=C(Nc1ccc(Cl)cc1)c1cc(-n2cccc2)n(-c2ccccc2)n1	6 µM	Jc1	Huh5-2 replicon cells		PCR	68%
O=C1CSC(=Nc2nnc(-c3ccccc3Cl)s2)N1	50 µM	GT1b	Huh7		luciferase	0%
COc1cc([C@@H]2O[C@H](c3cc(OC)c4c(c3)OCO4)[C@@H](C)[C@@H]2C)cc(OC)c1OC	12.5 µM	Cell culture J6/JFH-1	Huh7.5			92%
Cc1cc(Cn2cc(CNC(=O)[C@]34CCC(C)(C)CC3C3=CCC5[C@@]6(C)CC[C@H](O)C(C)(C)C6CC[C@@]5(C)[C@]3(C)C[C@H]4O)nn2)c(C)cc1Cn1cc(CNC(=O)[C@]23CCC(C)(C)CC2C2=CCC4[C@@]5(C)CC[C@H](O)C(C)(C)C5CC[C@@]4(C)[C@]2(C)C[C@H]3O)nn1	1 µM		Huh7		luciferase / entry	72.2%
COc1cccc(-c2ccccc2NC(=O)C2CCN(Cc3cccc4ccccc34)CC2)c1	15 µM	JFH-1	Huh7		PCR	≥40%
O=C1NC(=Nc2nnc(-c3ccccc3Cl)s2)SC1=Cc1c(Cl)cccc1Cl	50 µM	GT1b	Huh7		luciferase	88%
COc1cc([C@H]2O[C@@H](c3cc(OC)c4c(c3)OCO4)[C@@H](C)[C@@H]2C)cc2c1OCO2	25 µM	Subgenomic replicon S52	Huh7.5	T1056A T1429I S2204I	luciferase	80%
O=C(Nc1cccc(-c2cscn2)c1)C1CCN(Cc2cccc(-c3ccco3)c2)CC1	15 µM	JFH-1	Huh7		PCR	≥40%
CC1(C)CC[C@@]2(C(=O)NCc3cn(CCCn4cc(CNC(=O)[C@]56CCC(C)(C)CC5C5=CCC7[C@@]8(C)CC[C@H](O)C(C)(C)C8CC[C@@]7(C)[C@]5(C)C[C@H]6O)nn4)nn3)C(C1)C1=CCC3[C@@]4(C)CC[C@H](O)C(C)(C)C4CC[C@@]3(C)[C@]1(C)C[C@H]2O	1 µM		Huh7		luciferase / entry	86.3%
O=C1NC(=Nc2nnc(-c3c(Cl)cccc3Cl)s2)SC1=Cc1cccc(F)c1	50 µM	GT1b	Huh7		luciferase	97%
CC1(C)CC[C@@]2(C(=O)NCc3cn(Cc4ccccc4)nn3)C(C1)C1=CCC3[C@@]4(C)CC[C@H](O)C(C)(C)C4CC[C@@]3(C)[C@]1(C)C[C@H]2O	5 µM		Huh7		luciferase / entry	2.7%
O=C1CSC(=Nc2nnc(-c3ccc(Cl)cc3Cl)s2)N1	50 µM	GT1b	Huh7		luciferase	0%
COc1cccc(-c2ccccc2NC(=O)C2CCN(Cc3cccc(OC)c3O)CC2)c1	5 µM	JFH-1	Huh7		PCR	≥40%
CC1(C)CC[C@@]2(C(=O)NCc3cn(CCCCCCn4cc(CNC(=O)[C@]56CCC(C)(C)CC5C5=CCC7[C@@]8(C)CC[C@H](O)C(C)(C)C8CC[C@@]7(C)[C@]5(C)C[C@H]6O)nn4)nn3)C(C1)C1=CCC3[C@@]4(C)CC[C@H](O)C(C)(C)C4CC[C@@]3(C)[C@]1(C)C[C@H]2O	1 µM		Huh7		luciferase / entry	72.7%
COc1cc(CN2CCC(C(=O)Nc3ccc(-c4cccc(C)c4)cc3)CC2)ccc1O	15 µM	JFH-1	Huh7		PCR	≥40%
O=C1NC(=Nc2nnc(-c3ccccc3Cl)s2)SC1=Cc1cccc(F)c1	50 µM	GT1b	Huh7		luciferase	89%
CCN1CCC(CN2CCC(C(=O)Nc3ccc(Oc4ccccc4F)cc3)CC2)CC1	5 µM	JFH-1	Huh7		PCR	≥70%
Cn1c(=O)c2c(ncn2C)n(C)c1=O	2000 µM	JFH-1	Huh7.5		luciferase / replicon	82%
CCc1ccc(CN2CCC(C(=O)Nc3ccc(-c4nc5ccccc5[nH]4)cc3)CC2)o1	5 µM	JFH-1	Huh7		PCR	≥40%
O=C1NC(=Nc2nnc(-c3c(F)cccc3Cl)s2)SC1=Cc1cccc(F)c1	50 µM	GT1b	Huh7		luciferase	97%

For reference, 3 entries again:

{"structure": "CC1(C)CC[C@@]2(C(=O)NCc3cn(CCCCCn4cc(CNC(=O)[C@]56CCC(C)(C)CC5C5=CCC7[C@@]8(C)CC[C@H](O)C(C)(C)C8CC[C@@]7(C)[C@]5(C)C[C@H]6O)nn4)nn3)C(C1)C1=CCC3[C@@]4(C)CC[C@H](O)C(C)(C)C4CC[C@@]3(C)[C@]1(C)C[C@H]2O", "dose": "5 µM", "cell line": "Huh7", "method": "luciferase / entry", "result": "71.9%"}
{"structure": "COc1cc([C@H]2O[C@@H](c3cc(OC)c4c(c3)OCO4)[C@@H](C)[C@@H]2C)cc2c1OCO2", "dose": "25 µM", "strain or isolate": "Subgenomic replicon S52", "cell line": "Huh7.5", "changes": "T1056A T1429I S2204I", "method": "luciferase", "result": "80%"}
{"structure": "CC1(C)CC[C@@]2(C(=O)NCc3cn(CCCn4cc(CNC(=O)[C@]56CCC(C)(C)CC5C5=CCC7[C@@]8(C)CC[C@H](O)C(C)(C)C8CC[C@@]7(C)[C@]5(C)C[C@H]6O)nn4)nn3)C(C1)C1=CCC3[C@@]4(C)CC[C@H](O)C(C)(C)C4CC[C@@]3(C)[C@]1(C)C[C@H]2O", "dose": "1 µM", "cell line": "Huh7", "method": "luciferase / entry", "result": "86.3%"}